# Data taken from publication PMC12186487.
# The exact form of at least one protein or probe is not confirmed. Tags and fusion partners may be left off the protein sequences shown.
# Experiments:
# CarR [1] = target: T1, CarR (UniProt Q8RFU8); assay: competition with a labelled probe; settings: EMSA: 1x LightShift binding buffer, 50 ng/uL poly(dI-dC), 2.5% glycerol, 5 mM MgCl2, 20 uL, 20 min, room temperature, 25 ng probe, recombinant protein, protein details: His6
# T1 sequence (looked up, limits assumed): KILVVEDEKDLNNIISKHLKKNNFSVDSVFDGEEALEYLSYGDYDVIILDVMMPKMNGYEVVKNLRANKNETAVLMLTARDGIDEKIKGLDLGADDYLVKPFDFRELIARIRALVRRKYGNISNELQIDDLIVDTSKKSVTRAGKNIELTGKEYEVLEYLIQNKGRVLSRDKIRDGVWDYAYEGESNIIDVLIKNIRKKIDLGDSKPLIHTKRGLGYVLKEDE
# CarR [2] = target: T1, CarR; assay: EMSA; settings: poly(dI-dC), EMSA: 1x LightShift binding buffer, 50 ng/uL poly(dI-dC), 2.5% glycerol, 5 mM MgCl2, 20 uL, 20 min, room temperature, 25 ng probe, recombinant protein, protein details: His6, label: Cy5 5' (forward primer), probe letters rebuilt from the primers and the genome
# CarR [3] = target: T1, CarR; assay: DNase I footprinting; settings: 7 uM CarR, 17 bp motif protected; footprinting: 200 ng probe, 30 min, 25 C; pH not stated; recombinant protein; protein details: His6; label: 6-FAM 5' (forward primer); probe letters rebuilt from the primers and the genome
# [4] = competed by 100-fold unlabeled probe
sequence,measurement,setting,value
TCAGATGAATATTTTTGATGACATAGTATAAAAAAAATGATATAATGAAAACAGTTATATAAATTATATATATATACAATAAATAATA (double strand) [pradA BS P1],binding result,CarR [1]; 100-fold excess unlabeled vs Cy5-pradA,binds
CACAGTGTACTATGACAGTTTTTAGTATAAATAATTTATTTATAAATCGTTTTATGTTAATATTATAATATAAAAATATCAAATATACTAGGAGGTAAATTATGGAAATGAAAAAATCTGGTTTAGG (double strand) [megL promoter probe],binding result,CarR [2]; [4],binds
GTTTCTTTACTCATTCTAAATTCCTCCTTAAAAATTAATAAACAAAAAATAATCAATTTTGTTCTATTTATATTTTATATTTTATCATATTTTTTTTATATGTCAATGTAAAAATTTTTTTATTTTTTCAATACAATATGTAGTATAATCGAAAAAAATATAATAAATTATTTTTTTATATTAATATTTTTTTTATTATTAATTATATAAATTATTAATGTTTTTTTATTCATTTTATTTC (double strand) [gluD (gdhA) promoter probe],binding result,CarR [2]; [4],binds
CGAGAGACAAAAGCATTGTAATATAGCATATAAAAATGAATATCAGATGAATATTTTTGATGACATAGTATAAAAAAAATGATATAATGAAAACAGTTATATAAATTATATATATATACAATAAATAATATAAAAAAGGGGAGGTTGAATTTATGAAAAAAGTTATTTTAACATTATTTGTTTTATTATCTATTGGAATATTTGCAAATGATGAG (double strand) [pradA 215 bp EMSA probe],binding result,CarR [2],binds
TATAAGGATTGACTTTTGTAAGAAACAGGAGTTAGTTCTTTTTAATTTATTAAAAAAATACATTATAAATAAATATAATATCTATAAATAGATTATTTTAATCTAAAAATATACTAATAATTTTATATTTCGAGAGACAAAAGCATTGTAATATAGCATATAAAAATGAATATCAGATGAATATTTTTGATGACATAGTATAAAAAAAATGATATAATGAAAACAGTTATATAAATTATATATATATACAATAAATAATATAAAAAAGGGGAGGTTGAATTTATGAAAAAAGTTATTTTAACATTATTTGTTTTATTATCTATTGGAATATTTGCAAATGATGAG (double strand) [pradA footprinting probe],binding result,CarR [3],binds
CAGTTTTGATGTTAGAAAACTGTACTTTTTTTTATTAAAAAAATAATTTATAAAATATATATAAGAAAATTTTTTTATTATATTTTTAGATGTAACTATGAAATTATAATATAAAAAATTCTTTACTAAAAAACTAAAAAATAAATTTTAAAATAAATTTTAAATGTTCTATAAAAAAACAAAAAAAACTTATTTCTAAAAAATAATACGATTATACTAAAAATATATTTGACATTATAAATTTTTTAGATATAATGAAAATAAGAGGTAAGGGTATG (double strand) [kal (ldp) promoter probe],binding result,CarR [2]; [4],binds
CCATCCATTAATGTTTCCAGAGCTCCAAAATGCTCTCTCAACATTAATGGATGTCGCAGTAGCCTTATTAAAAATTATTATTTATTATAATCAATATATACAAAAGGAAGAGATATGTTATTTGAAGACAG (double strand) [pfruR 131 bp probe],binding result,CarR [2],binds
CCATCCATTAATGTTTCCAGAGCTCCAAAATGCTCTCTCAACATTAATGGATGTCGCAGTAGCCTTATTAAAAATTATTATTTATTATAATCAATATATACAAAAGGAAGAGATATGTTATTTGAAGACAG (double strand) [pfruR unlabeled competitor],binding result,"CarR [1]; 100-fold excess unlabeled vs Cy5-pfruR, probe letters rebuilt from the primers and the genome",binds
